# Results published in PubChem BioAssay AID540268 (Broad Institute, 2011).
# System: Plasmodium falciparum 3D7 growth, plate reader
# Assay: growth inhibition of yeast carrying parasite Hsp90, dose response, anti-malarial Hsp90 inhibitor project, ATP luminescence, 48 h, cherry-picked samples (AID 540268)
structure (smiles),measurement,value
CC(=O)OC1C(=O)OCC23CCC4(C)OC4C2OC2CC(OC(=O)C=CC=CC(=O)OCCC1C)C3(C)C21CO1 (stereo unspecified),AC50,4.28 µM
